Results reported in ChEMBL document CHEMBL3596145, “Structure and inhibition studies of a type II beta-carbonic anhydrase psCA3 from Pseudomonas aeruginosa” (Bioorg Med Chem, 2015).

Sequences of proteins named here, by UniProt entry; tags and fusion partners are left off. Residues count along the entry.
UniProt Q9HVB9, 1-215: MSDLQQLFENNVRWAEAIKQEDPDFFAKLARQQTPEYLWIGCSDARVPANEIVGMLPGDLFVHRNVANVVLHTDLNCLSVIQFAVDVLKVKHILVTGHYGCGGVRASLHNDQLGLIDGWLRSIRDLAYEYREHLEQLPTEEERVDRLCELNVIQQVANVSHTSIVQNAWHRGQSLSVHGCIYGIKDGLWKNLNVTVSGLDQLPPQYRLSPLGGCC

Molecular target: Carbonic anhydrase (Pseudomonas aeruginosa (strain ATCC 15692 / PAO1 / 1C / PRS 101 / LMG12228), UniProt Q9HVB9)
Experiment: Inhibition of Pseudomonas aeruginosa PAO1 type-2 beta-carbonic anhydrase psCA3 expressed in Escherichia coli Tuner BL21 (DE3) cells pre-incubated for 15 mins at pH 8.3 and 293K by CO2 hydration reaction based colorimetric stopped-flow method

O=[As](O)(O)c1ccccc1
pKi: 5.05

pKi: −log10 of the molar value.
